Reference: PMC4376002 (Frontiers in Bioengineering and Biotechnology, 2015)
“And” between values parts separate entries of the source, which are not always exact repeats. Identical values can stand only once.

Test system: L. pneumophila Corby isogenic mip-deficient mutant (Δmip)

SMILES	Δmip MIC
C[C@@H]1CC([C@H](O)CC2CC(=O)N(CC(=O)NC34CC5CC(CC(C5)C3)C4)C(=O)C2)[C@@H](O)[C@@H](C)C1 (stereo partly drawn) [MT_30.93]	40 µM
C[C@@H]1CC([C@H](O)CC2CC(=O)N(CC(=O)NC34CC5CC(CC(C5)C3)C4)C(=O)C2)[C@H](O)[C@@H](C)C1 (stereo partly drawn) [MT_30.92]	40 µM
CCC12CC3CC(C1)CC(NC(=O)CN1C(=O)CC(C[C@@H](O)C4C[C@@H](C)C[C@H](C)C4=O)CC1=O)(C3)C2 (stereo partly drawn) [MT_30.51]	30 µM
CO[C@H]1C[C@@H]2CC[C@@H](C)[C@@](O)(O2)C(=O)C(=O)N2CCCC[C@H]2C(=O)O[C@H]([C@H](C)C[C@@H]2CC[C@@H](O)[C@H](OC)C2)CC(=O)[C@H](C)/C=C(\C)[C@@H](O)[C@@H](OC)C(=O)[C@H](C)C[C@H](C)/C=C/C=C/C=C/1C [Rapamycin, reference compound]	≥ 40 µM and 40 µM
CC1CC(C)C(=O)C(C(O)CC2CC(=O)N(CC(=O)NC34CC5CC(C)(CC(C)(C5)C3)C4)C(=O)C2)C1 (stereo not drawn) [MT_30.32]	30 µM
C[C@@H]1CC([C@H](O)CC2CC(=O)N(CC(=O)N(C)C(C)(C)C)C(=O)C2)C(=O)[C@@H](C)C1 (stereo partly drawn) [MT_30.9]	30 µM
